Reference: publication PMC11205783, “HigA2 (Rv2021c) Is a Transcriptional Regulator with Multiple Regulatory Targets in Mycobacterium tuberculosis”

Target: T1, HigA2 (Mycobacterium tuberculosis H37Rv) (UniProt O53467)
T1 sequence (looked up): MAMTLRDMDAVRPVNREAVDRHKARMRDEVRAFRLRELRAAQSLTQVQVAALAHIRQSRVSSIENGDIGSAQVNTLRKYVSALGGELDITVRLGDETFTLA
Test: EMSA
Conditions: 150 mM NaCl, pH 8.0, 37 °C, 5 min, recombinant protein, residues 1-101, protein details: C-terminal 6xHis

| Sequence | binding result (EMSA: 20 mM Tris-HCl, HigA2 1 uM (titrated in Fig 4), agarose or native PAGE, probe letters rebuilt from the primers and the genome) | binding result (20 mM Tris-HCl, flanks not given) |
| --- | --- | --- |
| GCGAAGGAGATATACATATGAACGTTCCATGGGAGAACGCGCACGGCGGCGCACTGTACTGCCTCATACGTGGGGATGAATTCTCGGCCTGGCACAGGCTACTGTTTCAACGGCCCGGGTGCGCAGAGTCCGTCCTCGCCTGCCGGCATTTCCTCGACGGTAGCCCCGTCGCCCGCTGCTCTTACCCGGAGGAATATCACCCTTGTGTGATATCGCGTATCGCGCTACTCTGCGACTCTGTGGGGTGGACGGCGGATGTGGAGCGCATCTCCGCCTGGCTCAACGGCTTGGACCGAGAGACCTACGAATTGGTGTTCGCAGCTATCGAGGTTCTCGAGGAAGAGGGCCCCGCACTTGGCTGTCCTCTGGTGGACACGGTGCGTGGGTCGCGCCACAAGAACATGAAGGAGCTGCGTCCAGGATCACAAGGGCGGTCCGAGGTCCGCATTCTGTTCGCCTTCGACCCGGCGCGGCAGGCGATCATGCTGGCCGCCGGTAACAAGGCCGGGCGGTGGACCCAGTGGTACGACGAGAAGATCAAAGCGGCCGATGAGATGTTTGCCGAACATCTCGCACAGTTCGAGGACACGAAGCCAAAGAGGCGCAAGCGCAAGAAAGGGTAAGATATCTCTAGAGAATTCC (double strand) [seq2] | binds | – |
| ATATCACCCTTGTGTGATAT (double strand) [Rv2022c] | – | binds |

Protein sequences can lack the tags named with them.
